Compound potency records, mixed from different reports. Data source: NIAID ChemDB in PubChem.

Common to all: whole-cell or culture tests; agent: HIV-1; method: syncytia; endpoint: fold resistance

Fold resistance has wild type as its base. An empty or dashed field is not shown. Conditions beyond the fields shown may differ between rows.

{"compound": "Cc1ccsc1C(=S)Nc1ccc(Cl)c(C(=O)OC(C)C)c1", "mutations": "RT-Y181C", "cells": "CEM", "value": "26.7"}
{"compound": "C/C(Cl)=C/COc1cc(NC(=O)c2ccoc2C)ccc1Cl", "strain or isolate": "TIBO R82913-resistant (RT K103N)", "mutations": "RT-K103N", "cells": "CEM", "value": "55.6"}
{"compound": "Cc1ccccc1OC(=O)c1cc(NC(=S)OC(C)C)ccc1Cl", "mutations": "RT-V106A", "cells": "CEM", "value": "≥25"}
{"compound": "CC1=C(C(=S)Nc2ccc(Cl)c(C=NOC(C)(C)C)c2)CCCO1", "mutations": "RT-Y188L", "cells": "CEM", "value": "771"}
{"compound": "C=CCOc1cc(NC(=S)OC(C)C)ccc1Cl", "mutations": "RT-Y181C", "cells": "CEM", "value": "14.3"}
{"compound": "Cc1occc1C(=S)Nc1ccc(Cl)c(OCC(C)(C)C)c1", "mutations": "RT-V106A", "cells": "CEM", "value": "13.3"}
{"compound": "Cc1occc1C(=S)Nc1ccc(Cl)c(OCC=C(Cl)Cl)c1", "strain or isolate": "TSAO-m3T-resistant (RT E138K)", "mutations": "RT-E138K", "cells": "CEM", "value": "4.71"}
{"compound": "CC1=C(C(=O)Nc2cc(Cl)cc(C(=O)OC(C)C)c2)SCCO1", "strain or isolate": "TIBO-resistant (RT L100I)", "mutations": "RT-L100I", "cells": "CEM", "value": "1"}
{"compound": "Cc1ccsc1C(=O)Nc1ccc(Cl)c(C(=O)OC2CCCCC2)c1", "mutations": "RT-E138K", "cells": "CEM", "value": "32.4"}
{"compound": "CC(=O)COc1cc(NC(=S)OC(C)C)ccc1Cl", "mutations": "RT-E138K", "cells": "CEM", "value": "7.99"}
{"compound": "C=C(Cl)COc1cc(NC(=S)c2ccoc2C)ccc1Cl", "strain or isolate": "TIBO R82150-resistant (RT L100I)", "mutations": "RT-L100I", "cells": "CEM", "value": "14.9"}
{"compound": "CC(C)OC(=S)Nc1ccc(Cl)c(C(=O)OC2CC2)c1", "mutations": "RT-Y181C", "cells": "CEM", "value": "20.1"}
{"compound": "C#CCOc1cc(NC(=S)c2ccoc2C)ccc1Cl", "mutations": "RT-Y181C", "cells": "CEM", "value": "6.63"}
{"compound": "COC(=S)Nc1ccc(Cl)c(C(=O)OC(C)C)c1", "mutations": "RT-L100I", "cells": "CEM", "value": "≥5.27"}
{"compound": "Cc1ccsc1C(=S)Nc1ccc(Cl)c(C(=O)OC2CCCCC2)c1", "mutations": "RT-L100I", "cells": "CEM", "value": "7.11"}
{"compound": "CCC(C)OC(=O)c1cc(NC(=S)OC(C)C)ccc1Cl", "mutations": "RT-L100I", "cells": "CEM", "value": "29.8"}
{"compound": "Cc1occc1C(=O)Nc1ccc(Cl)c(SCC=C(Cl)Cl)c1", "strain or isolate": "TIBO R82150-resistant (RT L100I)", "mutations": "RT-L100I", "cells": "CEM", "value": "10"}
{"compound": "CC(C)OC(=O)c1cc(NC(=S)OC(C)C)ccc1Cl", "strain or isolate": "IIIB", "mutations": "RT-V106A", "cells": "CEM", "value": "71"}
{"compound": "Cn1cccc1C(=S)Nc1ccc(Cl)c(/C=N/OC(C)(C)C)c1", "mutations": "RT-Y181C", "cells": "CEM", "value": "1.56"}
{"compound": "CC(C)OC(=S)Nc1ccc(Cl)c(C(=O)OCC2CC2)c1", "mutations": "RT-Y181C", "cells": "CEM", "value": "35"}
{"compound": "COc1ccccc1C(=S)Nc1ccc(Cl)c(C(=O)OC2CCCC2)c1", "mutations": "RT-E138K", "cells": "CEM", "value": "14.7"}
{"compound": "Cc1ccc(C)c(CS(=O)c2ccc(Cl)c[n+]2[O-])c1", "strain or isolate": "IIIB", "mutations": "RT-E138K", "cells": "CEM", "value": "4.75"}
{"compound": "CCC1=C(C(=O)Nc2ccc(Cl)c(C(=O)OC(C)C)c2)SCCO1", "strain or isolate": "PYR-resistant (RT Y181C)", "mutations": "RT-Y181C", "cells": "CEM", "value": "125"}
{"compound": "CC(C)OC(=O)c1cc(NC(=S)c2ccccc2N)ccc1Cl", "mutations": "RT-L100I", "cells": "CEM", "value": "86.7"}
{"compound": "Cc1cc(C)cc(Sc2c(C(C)C)c(=O)[nH]c(=S)n2COCCO)c1", "strain or isolate": "IIIB", "mutations": "RT-Y181C", "cells": "CEM", "value": "56.7"}
{"compound": "Cc1ccc(C)c(CS(=O)(=O)c2cccc[n+]2[O-])c1", "strain or isolate": "IIIB", "mutations": "RT-K103N", "cells": "CEM", "value": "2.07"}
{"compound": "CCCCCOC(=O)c1cc(NC(=O)C2=C(C)OCCS2)ccc1Cl", "strain or isolate": "TSAO-resistant (RT E138K)", "mutations": "RT-E138K", "cells": "CEM", "value": "15"}
{"compound": "CC(C)=CCOc1cc(NC(=S)c2ccoc2C)ccc1Cl", "mutations": "RT-K103N", "cells": "CEM", "value": "7.7"}
{"compound": "O=C(Nc1ccc(Cl)c(C(=O)OC2CCCCC2)c1)c1ccccc1F", "strain or isolate": "IIIB", "mutations": "RT-V106A", "cells": "CEM", "value": "3.33"}
{"compound": "CO/N=C/c1cc(NC(=S)c2ccoc2C)ccc1OC", "mutations": "RT-K103N", "cells": "CEM", "value": "170"}
{"compound": "CC(C)OC(=O)c1cc(NC(=S)OC(C)C)ccc1Cl", "strain or isolate": "IIIB", "mutations": "RT-V106A", "cells": "CEM", "value": "71"}
{"compound": "C/C(Cl)=C/COc1cc(NC(=S)c2ccoc2C)ccc1Cl", "strain or isolate": "HEPT-resistant (RT Y188H)", "mutations": "RT-Y188H", "cells": "CEM", "value": "300"}
{"compound": "CCC(C)OC(=S)Nc1ccc(Cl)c(C(=O)OC(C)(C)C)c1", "mutations": "RT-E138K", "cells": "CEM", "value": "4.01"}
{"compound": "CCOC(=O)c1cc(NC(=S)c2ccoc2C)ccc1C", "strain or isolate": "IIIB", "mutations": "RT-Y181C", "cells": "CEM", "value": "6.67"}
{"compound": "CCc1c(Sc2cc(C)cc(C)c2)n(COCCO)c(=S)[nH]c1=O", "strain or isolate": "IIIB", "mutations": "RT-Y181I", "cells": "CEM", "value": "250"}
{"compound": "CC1=C(C(=O)Nc2cc(C(=O)OC(C)C)c(Cl)cc2F)SCCO1", "strain or isolate": "TIBO-resistant (RT L100I)", "mutations": "RT-L100I", "cells": "CEM", "value": ">15.4"}
{"compound": "CCOC(=O)c1cc(NC(=S)OC(C)C)ccc1Cl", "mutations": "RT-L100I", "cells": "CEM", "value": "107"}
{"compound": "C/C=C/COc1cc(NC(=S)c2ccoc2C)ccc1Cl", "mutations": "RT-E138K", "cells": "CEM", "value": "85"}
{"compound": "CCOC(=O)c1cc(NC(=O)C2=C(CC)OCCS2)ccc1Cl", "strain or isolate": "TSAO-resistant (RT E138K)", "mutations": "RT-E138K", "cells": "CEM", "value": "27.1"}
{"compound": "CCOCn1c(Sc2cc(C)cc(C)c2)c(CC)c(=O)[nH]c1=S", "strain or isolate": "IIIB", "mutations": "RT-Y181C", "cells": "CEM", "value": "30"}
{"compound": "CC1=C(C(=O)Nc2ccc(Cl)c(C(=O)OC(C)C)c2)SCCO1", "strain or isolate": "IIIB", "mutations": "RT-L100I", "cells": "CEM", "value": ">2700"}
{"compound": "CC(C)OC(=S)Nc1ccc(Cl)c(C(=O)OCc2ccccc2)c1", "mutations": "RT-E138K", "cells": "CEM", "value": "1.86"}
{"compound": "COc1ccccc1C(=S)Nc1ccc(Cl)c(C(=O)OC(C)C)c1", "mutations": "RT-E138K", "cells": "CEM", "value": "20.3"}
{"compound": "CCOCn1c(Cc2ccccc2)c(CC)c(=O)[nH]c1=O", "strain or isolate": "IIIB", "mutations": "Nevirapine resistant (RT Y181C)", "cells": "CEM", "value": "32.5"}
{"compound": "CCOC(=O)c1cc(NC(=S)OC(C)C)ccc1SC", "mutations": "RT-Y181C", "cells": "CEM", "value": "83.5"}
{"compound": "COc1ccc(NC(=S)C2=C(C)OCCS2)cc1OCC=C(Cl)Cl", "strain or isolate": "HEPT-resistant (RT Y188H)", "mutations": "RT-Y188H", "cells": "CEM", "value": "7.41"}
{"compound": "CC(C)OC(=O)c1cc(NC(=S)c2cccs2)ccc1Cl", "mutations": "RT-E138K", "cells": "CEM", "value": "30"}
{"compound": "CC(C)=CCOc1cc(NC(=S)c2ccoc2C)ccc1Cl", "strain or isolate": "IIIB", "mutations": "RT-L100I", "cells": "CEM", "value": "2.7"}
{"compound": "CC1=C(C(=S)Nc2ccc(Cl)c(/C=N/OC(C)(C)C)c2)CCO1", "strain or isolate": "IIIB", "mutations": "RT-L100I", "cells": "CEM", "value": "10"}
{"compound": "Cc1occc1C(=S)Nc1ccc(Cl)c(OC(=O)OC(C)C)c1", "mutations": "RT-E138K", "cells": "CEM", "value": "1.64"}
{"compound": "CCOCn1c(Sc2ccccc2)c(C(C)C)c(=O)[nH]c1=S", "strain or isolate": "IIIB", "mutations": "RT-Y181I", "cells": "CEM", "value": ">3330"}
{"compound": "CCC(CC)OC(=O)c1cc(NC(=S)c2ccoc2C)ccc1Cl", "mutations": "RT-E138K", "cells": "CEM", "value": "4.01"}
{"compound": "Cc1occc1C(=S)Nc1ccc(Cl)c(SCC=C(Cl)Cl)c1", "strain or isolate": "Nevirapine-resistant isolate (RT V106A)", "mutations": "RT-V106A", "cells": "CEM", "value": "5"}
{"compound": "CCCCCOC(=S)Nc1ccc(Cl)c(C(=O)OC(C)C)c1", "mutations": "RT-V106A", "cells": "CEM", "value": "18.2"}
{"compound": "C=C(C)[C@@H]1CC[C@]2(C(=O)NCCCCCCCC(=O)N[C@@H](CC(C)C)[C@@H](O)CC(=O)O)CC[C@]3(C)[C@H](CC[C@@H]4[C@@]5(C)CC[C@H](O)C(C)(C)[C@@H]5CC[C@]43C)[C@@H]12", "strain or isolate": "LAI", "mutations": "GP41-K106R", "cells": "HeLa P4 + HeLa", "value": "~1"}
{"compound": "CSC(=Nc1ccc(Cl)c(C(=O)OC(C)C)c1)OC(C)C", "mutations": "RT-V106A", "cells": "CEM", "value": ">1"}
{"compound": "Cc1occc1C(=S)Nc1ccc(Cl)c(C(=O)OC(C)C)c1", "mutations": "RT-E138K", "cells": "CEM", "value": "85"}
{"compound": "CC(C)OC(=O)Oc1cc(NC(=S)OC(C)C)ccc1Cl", "mutations": "RT-L100I", "cells": "CEM", "value": "17.5"}
{"compound": "Cc1occc1C(=S)Nc1ccc(Cl)c(OCC(=O)OC(C)(C)C)c1", "mutations": "RT-L100I", "cells": "CEM", "value": "2.11"}
{"compound": "COC(=O)c1cc(NC(=O)C2=C(C)OCCS2)ccc1Cl", "strain or isolate": "TIBO-resistant (RT L100I)", "mutations": "RT-L100I", "cells": "CEM", "value": ">2.5"}
{"compound": "COc1ccc(NC(=S)OC(C)C)cc1CC(=O)OC(C)C", "mutations": "RT-E138K", "cells": "CEM", "value": "7.36"}
{"compound": "CCC1=C(C(=O)Nc2ccc(Cl)c(C(=O)OCC(C)C)c2)SCCO1", "strain or isolate": "TIBO-resistant (RT L100I)", "mutations": "RT-L100I", "cells": "CEM", "value": "6"}
{"compound": "Cc1ccoc1C(=S)Nc1ccc(Cl)c(C(=O)OC(C)C)c1", "mutations": "RT-L100I", "cells": "CEM", "value": "51.6"}
{"compound": "CCOC(=O)C(C)Oc1cc(NC(=S)OC(C)C)ccc1Cl", "mutations": "RT-Y181C", "cells": "CEM", "value": "13.1"}
{"compound": "Cc1occc1C(=S)Nc1ccc(Cl)c(/C=N/OCc2ccccc2)c1", "mutations": "RT-V106A", "cells": "CEM", "value": "2.05"}
{"compound": "C#CCOc1cc(NC(=S)OC(C)C)ccc1Cl", "mutations": "RT-V106A", "cells": "CEM", "value": "6.25"}
{"compound": "Cc1occc1C(=O)Nc1ccc(Cl)c(/C=N/N(C)C)c1", "strain or isolate": "Nevirapine-resistant (RT V106A)", "mutations": "RT-V106A", "cells": "CEM", "value": "<8.89"}
{"compound": "Cc1cc(C)c(CS(=O)c2cccc[n+]2[O-])c(C)c1", "strain or isolate": "IIIB", "mutations": "RT-L100I", "cells": "CEM", "value": "1.875"}
{"compound": "CC1=C(C(=O)Nc2ccc(Cl)c(C(=O)OC3CCCCC3C)c2)SCCO1", "strain or isolate": "Nevirapine-resistant (RT V106A)", "mutations": "RT-V106A", "cells": "CEM", "value": "6"}
{"compound": "CC[C@@H](C)OC(=S)Nc1ccc(Cl)c(C(=O)OC(C)C)c1", "mutations": "RT-E138K", "cells": "CEM", "value": "4.48"}

A second listing of 9 rows from above:

compound,strain or isolate,mutations,cells,value
CC(C)=CCOc1cc(NC(=S)c2ccoc2C)ccc1Cl,IIIB,RT-L100I,CEM,2.7
C#CCOc1cc(NC(=S)c2ccoc2C)ccc1Cl,-,RT-Y181C,CEM,6.63
CCOC(=O)C(C)Oc1cc(NC(=S)OC(C)C)ccc1Cl,-,RT-Y181C,CEM,13.1
Cc1ccccc1OC(=O)c1cc(NC(=S)OC(C)C)ccc1Cl,-,RT-V106A,CEM,≥25
C=C(Cl)COc1cc(NC(=S)c2ccoc2C)ccc1Cl,TIBO R82150-resistant (RT L100I),RT-L100I,CEM,14.9
CC(C)=CCOc1cc(NC(=S)c2ccoc2C)ccc1Cl,-,RT-K103N,CEM,7.7
C/C=C/COc1cc(NC(=S)c2ccoc2C)ccc1Cl,-,RT-E138K,CEM,85
C=CCOc1cc(NC(=S)OC(C)C)ccc1Cl,-,RT-Y181C,CEM,14.3
CCCCCOC(=S)Nc1ccc(Cl)c(C(=O)OC(C)C)c1,-,RT-V106A,CEM,18.2